# Several values for one entry are separate records, joined by “and”; a condition that tells them apart may be missing. Equal entries are not always repeated. Where two headings read alike, the source gives them in different places.
# What was measured:
# S. pyogenes = assay: Susceptibility testing (MIC), S. pyogenes; conditions: for S. pyogenes MIC: serum-free conditions
# Excerpt: (§1) Media and culture conditions. Mueller Hinton broth (MHB), cation adjusted Mueller Hinton broth (CA-MHB), Todd Hewitt Broth (THB) and Brain Heart Infusion broth (BHI) were purchased from Becton Dickinson (Franklin Lakes, NJ). Tryptic soy agar (TSA) plates and TSA with 5% sheep blood plates were purchased from Remel (San Diego, CA). MHB was used to assay all Staphylococcus aureus strains. CA-MHB was used for Staphylococcus epidermidis, Enterococcus faecalis, Enterococcus faecium, Escherichia coil, and Pseudomonas aeruginosa. THB broth supplemented with 1% yeast extract was used for Streptococcus pneumoniae and Streptococcus pyogenes. Staphylococcus. Enterococcus, Escherichia, and Pseudomonas strains were cultured at 37 °C with ambient air. Streptococcus strains were cultured in 37 °C with 5% CO2. Separate conditions for radiolabeled precursor uptake assays are described below.
# (§2) Susceptibility testing: Minimum inhibitory concentration (MIC) determinations are performed in triplicate in 96-well round bottom microtiter plates (Corning, Corning NY) as described by the Clinical and Laboratory Standards Institute (CLSI). Serial two-fold dilutions of compounds are added to plates in 50 μL volumes. An additional 50 μL of media containing bacterial cells (1×10^6 CFUs/mL) is then added to each well. Maximum DMSO concentrations are 0.5%. Plates are incubated at 37 °C for at least 18 h before reading the susceptibility result by optical absorbance (OD600) using a BioTek ELx800. The lowest concentration causing ≥90% growth inhibition compared to the untreated control is recorded as the MIC (and also corresponded to the visual MIC). MICs are measured at least twice and the higher value (if different) is recorded herein.
# T. cruzi = T. cruzi growth inhibition assay
# Protocol: Trypanosoma crud growth inhibition assay: The Tulahuen strain of T. cruzi that expresses the Escherichia coli 3-galactosidase gene was utilized (PMID: 8913471). Mammalian stages of parasites were grown at 37 °C on monolayers of murine 3T3 fibroblasts in RPMI 1640 (Biowhittaker Inc., Walkersville, Md.) with 10% fetal bovine serum, penicillin, streptomycin, and glutamine. Growth inhibition assays were performed in 96-well tissue culture plates (Costar, Cambridge, Mass.). First, 3T3 fibroblasts were inoculated at 103/well using RPMI 1640 without phenol red (Biowhittaker Inc.) plus 10% fetal bovine serum and glutamine. The next day, the plates were infected with T. cruzi trypomastigotes at 104/well. After 4 h, drugs were added in serial dilutions to give a final volume of 200 μl/well. The plates were incubated at 37 °C in 5% CO2 atmosphere for 6 days. At this time. CPRG (100 μM final) and Nonidet P-40 (0.1% final) (Sigma Chemical Co., St. Louis, Mo.) were added and the plates were incubated at 37 °C for approximately 4 h. Wells with 0-galactosidase activity turned the media from yellow to red, and this was quantified on an enzyme-linked immunosorbent assay reader at A570.
# S. aureus = assay: Susceptibility testing (MIC), S. aureus; conditions: for S. aureus MIC: serum-free conditions
# Excerpt: as §1, §2
# MRSA = assay: Susceptibility testing (MIC), MRSA
# Excerpt: as §1, §2
# [1] = read-out: In Vitro EC50, anti-T. cruzi activity in vitro (Table 3)
# [2] = read-out: T. cruzi EC50, in vitro growth inhibition (Table 4)
smiles,measurement,setting,value
COc1cc(Cl)c(-c2c(F)nc(-c3ccnn3C)c3nc(Cc4nc5nc(Cl)ccc5[nH]4)cn23)cc1OC,S. pyogenes MIC,S. pyogenes,0.03 mg/L
COc1cc(F)c(-c2c(F)ncc3nc(Cc4nc5nc(Cl)ccc5[nH]4)cn23)cc1OC,S. pyogenes MIC,S. pyogenes,2.27 mg/L
same,EC50,T. cruzi; [1],0.0522 µM and 0.0698 µM
same,S. aureus MIC,S. aureus,0.250 mg/L and 0.368 mg/L
CCc1ncn(-c2nc(F)c(-c3cc(OC)c(OC)cc3Cl)n3cc(Cc4nc5nc(Cl)ccc5[nH]4)nc23)n1,S. aureus MIC,S. aureus,0.140 mg/L
COc1cc(Cl)c(-c2cnc(NC3COC3)c3nn(Cc4nc5nc(Cl)ccc5[nH]4)cc23)cc1OC,EC50,T. cruzi; [2],> 0.5 µM
same,S. aureus (ATCC29213) MIC,S. aureus,>8.00 mg/L
COc1cc(Cl)c(-c2c(F)nc(-c3c(C#N)cnn3C)c3nc(Cc4nc5nc(Cl)ccc5[nH]4)cn23)cc1OC,S. pyogenes MIC,S. pyogenes,0.383 mg/L
same,EC50,T. cruzi; [1],0.0227 µM
same,S. aureus MIC,S. aureus,0.0682 mg/L
CCNc1nc(F)c(-c2cc(OC)c(OC)cc2Cl)n2cc(Cc3nc4nc(Cl)ccc4[nH]3)nc12,EC50,T. cruzi; [1],0.0219 µM and 0.0203 µM
same,S. aureus MIC,S. aureus,0.0707 mg/L
COc1cc(Cl)c(-c2c(F)nc(-n3cncn3)c3nc(Cc4nc5nc(Cl)ccc5[nH]4)cn23)cc1OC,EC50,T. cruzi; [1],0.0289 µM and 0.0299 µM
same,S. aureus MIC,S. aureus,0.222 mg/L
COc1cc(F)c(-c2c(F)nc(-c3c(C)nn(C)c3C)c3nc(Cc4nc5nc(Cl)ccc5[nH]4)cn23)cc1OC,S. pyogenes MIC,S. pyogenes,0.133 mg/L
same,EC50,T. cruzi; [1],0.0303 µM and 0.0246 µM
same,S. aureus MIC,S. aureus,0.0838 mg/L
COc1cc(Cl)c(-c2c(F)nc(-c3ccncc3)c3nc(Cc4nc5nc(Cl)ccc5[nH]4)cn23)cc1OC,S. pyogenes MIC,S. pyogenes,0.0302 mg/L
same,EC50,T. cruzi; [1],< 0.00183 µM and 0.00231 µM and 0.00261 µM
COc1cc(Cl)c(-c2cnc(S(C)(=O)=O)c3nn(Cc4nc5nc(Cl)ccc5[nH]4)cc23)cc1OC,MRSA (ATCC33591) MIC,MRSA,0.0701 mg/L
same,S. pyogenes (ATCC19615) MIC,S. pyogenes,0.14 mg/L
same,EC50,T. cruzi; [2],0.245 µM
COc1cc(Cl)c(-c2c(F)nc(-c3cnn(CCO)c3)c3nc(Cc4nc5nc(Cl)ccc5[nH]4)cn23)cc1OC,S. pyogenes MIC,S. pyogenes,0.0589 mg/L
same,S. aureus MIC,S. aureus,0.0967 mg/L and 0.0509 mg/L
COc1cc(Cl)c(-c2c(F)nc(-c3cnn(C)c3C)c3nc(Cc4nc5nc(Cl)ccc5[nH]4)cn23)cc1OC,S. pyogenes MIC,S. pyogenes,0.0613 mg/L
same,EC50,T. cruzi; [1],0.00316 µM and 0.00593 µM
same,S. aureus MIC,S. aureus,0.0485 mg/L and 0.0455 mg/L
COc1cc(Cl)c(-c2cnc(NCC(C)(C)O)c3nn(Cc4nc5nc(Cl)ccc5[nH]4)cc23)cc1OC,MRSA (ATCC33591) MIC,MRSA,0.482 mg/L
same,S. pyogenes (ATCC19615) MIC,S. pyogenes,1.55 mg/L
same,S. aureus (ATCC29213) MIC,S. aureus,0.743 mg/L
CCOc1nc(F)c(-c2cc(OC)c(OC)cc2Cl)n2cc(Cc3nc4nc(Cl)ccc4[nH]3)nc12,S. pyogenes MIC,S. pyogenes,0.0422 mg/L
same,EC50,T. cruzi; [1],0.00544 µM and 0.00482 µM
same,S. aureus MIC,S. aureus,0.127 mg/L
COc1cc(Cl)c(-c2c(F)nc(-c3c(C)nn(C)c3C)c3nc(Cc4nc5nc(Cl)ccc5[nH]4)cn23)cc1OC,S. pyogenes MIC,S. pyogenes,0.0772 mg/L
same,S. aureus MIC,S. aureus,0.136 mg/L
COc1cc(F)c(-c2c(F)nc(-c3cnn(C)c3)c3nc(Cc4nc5nc(Cl)ccc5[nH]4)cn23)cc1OC,S. pyogenes MIC,S. pyogenes,0.187 mg/L
same,EC50,T. cruzi; [1],0.0102 µM and 0.0106 µM
same,S. aureus MIC,S. aureus,0.0173 mg/L
COc1cc(Cl)c(-c2c(F)nc(-c3c(C)cnn3C)c3nc(Cc4nc5nc(Cl)ccc5[nH]4)cn23)cc1OC,S. pyogenes MIC,S. pyogenes,0.0549 mg/L
COc1cc(Cl)c(-c2c(F)nc(-c3cnn(C4CC4)c3)c3nc(Cc4nc5nc(Cl)ccc5[nH]4)cn23)cc1OC,S. pyogenes MIC,S. pyogenes,0.0598 mg/L
same,EC50,T. cruzi; [1],0.00388 µM and 0.00657 µM
same,S. aureus MIC,S. aureus,0.0355 mg/L and 0.0439 mg/L
COc1cc(Cl)c(-c2cnc(N3CCOCC3)c3nn(Cc4nc5nc(Cl)ccc5[nH]4)cc23)cc1OC,MRSA (ATCC33591) MIC,MRSA,0.0739 mg/L and 0.110 mg/L
same,S. pyogenes (ATCC19615) MIC,S. pyogenes,0.24 mg/L
COc1cc(F)c(-c2c(F)nc(-c3c(C)cnn3C)c3nc(Cc4nc5nc(Cl)ccc5[nH]4)cn23)cc1OC,S. pyogenes MIC,S. pyogenes,0.286 mg/L
same,EC50,T. cruzi; [1],0.0172 µM and 0.0186 µM
same,S. aureus MIC,S. aureus,0.173 mg/L
COc1cc(Cl)c(-c2c(F)nc(-c3ccn(C)n3)c3nc(Cc4nc5nc(Cl)ccc5[nH]4)cn23)cc1OC,S. pyogenes MIC,S. pyogenes,0.12 mg/L
same,EC50,T. cruzi; [1],< 0.00183 µM and 0.00342 µM and 0.00289 µM
COc1cc(F)c(-c2c(F)nc(-c3cncnc3)c3nc(Cc4nc5nc(Cl)ccc5[nH]4)cn23)cc1OC,EC50,T. cruzi; [1],0.00247 µM and 0.00446 µM
COc1cc(F)c(-c2c(F)nc(-c3cnn(CCO)c3)c3nc(Cc4nc5nc(Cl)ccc5[nH]4)cn23)cc1OC,S. pyogenes MIC,S. pyogenes,0.0200 mg/L
same,EC50,T. cruzi; [1],0.0335 µM and 0.0367 µM
same,S. aureus MIC,S. aureus,0.0205 mg/L
COc1cc(Cl)c(-c2c(F)nc(-n3cnc(C)n3)c3nc(Cc4nc5nc(Cl)ccc5[nH]4)cn23)cc1OC,S. aureus MIC,S. aureus,0.256 mg/L
COc1cc(Cl)c(-c2cnc(NCC(F)F)c3nn(Cc4nc5nc(Cl)ccc5[nH]4)cc23)cc1OC,MRSA (ATCC33591) MIC,MRSA,0.113 mg/L
same,S. pyogenes (ATCC19615) MIC,S. pyogenes,0.85 mg/L
same,S. aureus (ATCC29213) MIC,S. aureus,0.29 mg/L
COc1cc(F)c(-c2c(F)nc(-c3cnn(C)c3C)c3nc(Cc4nc5nc(Cl)ccc5[nH]4)cn23)cc1OC,S. pyogenes MIC,S. pyogenes,0.0259 mg/L
same,EC50,T. cruzi; [1],0.0245 µM and 0.0253 µM
same,S. aureus MIC,S. aureus,0.0446 mg/L
COc1cc(Cl)c(-c2cnc(F)c3nc(Cc4nc5nc(Cl)ccc5[nH]4)cn23)cc1OC,loss of in vitro potency,"T. cruzi; 8-F, compared to either 2541 or the parent 2503",more than an order of magnitude loss of in vitro potency
same,EC50,T. cruzi; [1],0.251 µM
COc1cc(Cl)c(-c2cnc([S+](C)[O-])c3nn(Cc4nc5nc(Cl)ccc5[nH]4)cc23)cc1OC (stereo not shown),MRSA (ATCC33591) MIC,MRSA,0.0463 mg/L
same,S. pyogenes (ATCC19615) MIC,S. pyogenes,0.136 mg/L
same,S. aureus (ATCC29213) MIC,S. aureus,0.0465 mg/L
COc1cc(Cl)c(-c2c(F)nc(-c3cc(C)nn3C)c3nc(Cc4nc5nc(Cl)ccc5[nH]4)cn23)cc1OC,S. pyogenes MIC,S. pyogenes,0.0335 mg/L
same,EC50,T. cruzi; [1],< 0.00183 µM and 0.00326 µM and 0.00322 µM
same,S. aureus MIC,S. aureus,0.0357 mg/L and 0.0195 mg/L
COc1cc(Cl)c(-c2c(F)nc(OC)c3nc(Cc4nc5nc(Cl)ccc5[nH]4)cn23)cc1OC,S. pyogenes MIC,S. pyogenes,0.118 mg/L
same,S. aureus MIC,S. aureus,<0.0312 mg/L
COc1cc(Cl)c(-c2c(F)nc(-c3cn(C)nc3C)c3nc(Cc4nc5nc(Cl)ccc5[nH]4)cn23)cc1OC,S. pyogenes MIC,S. pyogenes,0.0285 mg/L
CCn1ncc(C)c1-c1nc(F)c(-c2cc(OC)c(OC)cc2Cl)n2cc(Cc3nc4nc(Cl)ccc4[nH]3)nc12,S. pyogenes MIC,S. pyogenes,0.209 mg/L
same,EC50,T. cruzi; [1],0.0104 µM and 0.00925 µM
same,S. aureus MIC,S. aureus,0.138 mg/L
COc1cc(Cl)c(-c2cnc(N3CCN(c4cnccn4)CC3)c3nn(Cc4nc5nc(Cl)ccc5[nH]4)cc23)cc1OC,MRSA (ATCC33591) MIC,MRSA,0.0797 mg/L
same,S. pyogenes (ATCC19615) MIC,S. pyogenes,0.206 mg/L
same,S. aureus (ATCC29213) MIC,S. aureus,0.226 mg/L
CCn1cc(-c2nc(F)c(-c3cc(OC)c(OC)cc3Cl)n3cc(Cc4nc5nc(Cl)ccc5[nH]4)nc23)cn1,S. pyogenes MIC,S. pyogenes,0.0149 mg/L
same,S. aureus MIC,S. aureus,0.0423 mg/L and 0.0442 mg/L
COc1cc(Cl)c(-c2c(F)nc(-c3c(C)nn(C4COC4)c3C)c3nc(Cc4nc5nc(Cl)ccc5[nH]4)cn23)cc1OC,S. pyogenes MIC,S. pyogenes,0.0946 mg/L
same,EC50,T. cruzi; [1],0.0146 µM and 0.0112 µM
same,S. aureus MIC,S. aureus,0.146 mg/L
COc1cc(Cl)c(-c2c(F)nc(-c3cccnc3)c3nc(Cc4nc5nc(Cl)ccc5[nH]4)cn23)cc1OC,S. pyogenes MIC,S. pyogenes,0.136 mg/L
COc1cc(Cl)c(-c2c(F)nc(-c3cncnc3)c3nc(Cc4nc5nc(Cl)ccc5[nH]4)cn23)cc1OC,S. pyogenes MIC,S. pyogenes,<0.00391 mg/L
same,EC50,T. cruzi; [1],< 0.00183 µM and 0.0015 µM and 0.00204 µM

# Reference: US20260382604A1, “Inhibitors of Type 1 Methionyl-tRNA Synthetase and Methods of Using Them” (published 2026)
